Values of other authors, collected in PubChem BioAssay AID977608.

Biological target: MDR HIV-1 protease variant, MDR 769 82T
Assay: literature IC50 values for PDB complexes, PDB-derived complexes (AID 977608)
Conditions: PDB protein-ligand complexes, protein: MDR HIV-1 protease variant, chain 3SPK_A,3SPK_B, PDB entry 3SPK

CCC[C@@]1(CCc2ccccc2)CC(=O)C([C@H](CC)c2cccc(NS(=O)(=O)c3ccc(C(F)(F)F)cn3)c2)C(=O)O1 (stereo partly specified)
IC50: 3.02 nM
